Data: article PMC9098913, “In vitro reconstitution of Escherichia coli divisome activation” (Nature Communications, 2022)

B1: His6-SUMO (protein, UniProt Q12306 2-98, looked up)
Ubiquitin-like protein SMT3: SDSEVNQEAKPEVKPEVKPETHINLKVSDGSSEIFFKIKKTTPLRRLMEAFAKRQGKEMDSLRFLYDGIRIQADQTPEDLDMEDNDIIEAHREQIGG
modifications: His6 tag

Test: Diffusion coefficient of His-tagged FtsAs and His-SUMO on Tris-NTA membranes (FRAP)
Procedure: To study colocalization of His-tagged variants of FtsA, 0.5–1 µM of Cy5 labelled His-tagged FtsAs were added to the chamber, incubated for 20 min and washed 6x with reaction buffer. […] To control the density of membrane-bound FtsA, SUVs without and with Tris-NTA lipids were mixed to obtain the respective Tris-NTA concentrations. To perform FRET/FRAP experiments, equimolar concentrations of Cy3 and Cy5 labelled His-tagged FtsAs (total 0.5–1 µM) or His-SUMO-Cys were added to a chamber and treated as above. […] FRAP experiments were performed as described before.
Bleaching the acceptor dye leads to an increase in the donor intensity, which can be used to quantify the Foerster Resonance energy transfer (FRET)[48]. FRET efficiency was quantified with E%=Ipost/Ipost+Ipre⋅100 , where Ipost is the intensity of the […] and Ipre is the […]. […] To extract the contribution of both processes, we adjusted a routine recently published by Gerganova et al.[33]. In short, the code provides the contribution of both modes of recovery by analysing the shape of the fluorescence recovery profile. […] Contribution of diffusion leads to a change of the slope of the outer borders of the bleached region (S4h right). Thus, by measuring the change of the slope of the border recovery, diffusion and simple on/off binding can be distinguished. We developed “FRAPdiff”, a graphical user interface, which uses the original fit routine by David Rutkowski. It can be used directly on.tiff movies with annotated bleach regions as ImageJ ROIs. In addition, we added optional bleach correction, user selectable projection axis (x or y), and optional mirroring of the recovery profiles, if bleaching was not symmetric. The original fit routine for estimating the recovery and diffusion dynamics can be found at https://github.com/davidmrutkowski/1DReflectingDiffusion. FRAPdiff is available at 10.5281/zenodo.6400639[49] under the GPLv3 open-source license.

[1] = 2% Tris NTA, without FtsZ, replicate Exp1
[2] = 2% Tris NTA, without FtsZ, replicate Exp2
[3] = 2% Tris NTA, without FtsZ, replicate Exp4

Molecule | Diffusion Coefficient (2% Tris NTA, + FtsZ, replicate Exp1) | Diffusion Coefficient (2% Tris NTA, + FtsZ, replicate Exp2) | Diffusion Coefficient (2% Tris NTA, + FtsZ, replicate Exp3) | Diffusion Coefficient [1] | Diffusion Coefficient [2] | Diffusion Coefficient [3] | Diffusion Coefficient ([…] Tris NTA, + FtsZ, replicate Exp1) | Diffusion Coefficient ([…] Tris NTA, + FtsZ, replicate Exp2) | Diffusion Coefficient ([…] Tris NTA, + FtsZ, replicate Exp3) | Diffusion Coefficient ([…] Tris NTA, + FtsZ, replicate Exp4) | Diffusion Coefficient ([…] Tris NTA, + FtsZ, replicate Exp5) | Diffusion Coefficient ([…] Tris NTA, without FtsZ, replicate Exp1) | Diffusion Coefficient ([…] Tris NTA, without FtsZ, replicate Exp2) | Diffusion Coefficient ([…] Tris NTA, without FtsZ, replicate Exp3) | Diffusion Coefficient ([…] Tris NTA, without FtsZ, replicate Exp4) | Diffusion Coefficient ([…] Tris NTA, without FtsZ, replicate Exp5) | Diffusion Coefficient (2% Tris NTA, without FtsZ, replicate Exp3)
FtsA-His6: FtsA WT (1-405) with amphipathic helix replaced by C-terminal His-tag | 1.64e-5 µm2/s | 0.00011 µm2/s | 0.000662 µm2/s | 6.55e-5 µm2/s | 0.0237 µm2/s | 0.000354 µm2/s | 7.28e-5 µm2/s | 1.56e-15 µm2/s | 0.0017 µm2/s | 0.00179 µm2/s | 0.00872 µm2/s | 0.00204 µm2/s | 1.2e-5 µm2/s | 0.000962 µm2/s | 0.00534 µm2/s | 0.0214 µm2/s | –
B1 | – | – | – | 0.56 µm2/s | 0.54 µm2/s | 0.60 µm2/s | – | – | – | – | – | – | – | – | – | – | 0.60 µm2/s
